# HIV-1 5' UTR: effect of mutations on RNA dimer formation

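Randomly mutated transcripts starting with one, two or three G (1G, 2G, 3G), capped or uncapped, were folded for 30 min at 37 °C. Monomer and dimer bands were cut from native gels after folding in high salt (300 mM KCl, 5 mM MgCl2) or low salt (40 mM KCl, 0.1 mM MgCl2). Kdimer compares mutation frequencies in monomer and dimer, corrected for sequencing errors.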

RNA: 5' end of the HIV-1 NL4-3 genome, made in vitro. Positions 1-437 read:
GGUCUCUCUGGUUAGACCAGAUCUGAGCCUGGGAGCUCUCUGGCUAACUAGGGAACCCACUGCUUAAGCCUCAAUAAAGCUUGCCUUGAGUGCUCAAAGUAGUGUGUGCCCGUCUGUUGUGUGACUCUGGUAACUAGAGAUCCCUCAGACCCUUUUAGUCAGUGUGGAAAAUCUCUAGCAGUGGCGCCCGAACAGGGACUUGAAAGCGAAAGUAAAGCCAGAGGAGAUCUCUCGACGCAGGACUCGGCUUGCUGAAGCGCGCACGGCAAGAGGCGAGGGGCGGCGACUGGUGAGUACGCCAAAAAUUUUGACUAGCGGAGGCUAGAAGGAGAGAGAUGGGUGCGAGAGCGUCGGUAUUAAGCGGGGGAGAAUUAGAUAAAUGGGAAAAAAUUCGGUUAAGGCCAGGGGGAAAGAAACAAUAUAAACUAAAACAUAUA

Values are log2 Kdimer, the median over the changes at each position: higher means that changes there hinder dimer formation, below 0 that they favour it. One numbering serves 1G, 2G and 3G. A position is written with its base.

* A368 -> 1G capped high-salt 0.15; 1G uncapped low-salt 0.12
* G369 -> 1G capped high-salt 0.12; 1G uncapped low-salt 0.06
* A370 -> 1G capped high-salt 0.06; 1G uncapped low-salt -0.04
* A371 -> 1G capped high-salt -0.10; 1G uncapped low-salt -0.01
* U372 -> 1G capped high-salt 0.06; 1G uncapped low-salt -0.05
* U373 -> 1G capped high-salt 0.11; 1G uncapped low-salt -0.12
* A374 -> 1G capped high-salt 0.00; 1G uncapped low-salt 0.06
* G375 -> 1G capped high-salt 0.10; 1G uncapped low-salt -0.08
* A376 -> 1G capped high-salt 0.06; 1G uncapped low-salt -0.27
* U377 -> 1G capped high-salt 0.07; 1G uncapped low-salt -0.10
* A378 -> 1G capped high-salt 0.04; 1G uncapped low-salt 0.15
* A379 -> 1G capped high-salt -0.11; 1G uncapped low-salt 0.01
* A380 -> 1G capped high-salt 0.08; 1G uncapped low-salt -0.14
* U381 -> 1G capped high-salt 0.01; 1G uncapped low-salt -0.26
* G382 -> 1G capped high-salt 0.19; 1G uncapped low-salt 0.16
* G383 -> 1G capped high-salt 0.11; 1G uncapped low-salt 0.13
* G384 -> 1G capped high-salt -0.41; 1G uncapped low-salt -0.06
* A385 -> 1G capped high-salt -0.09; 1G uncapped low-salt -0.34
* A386 -> 1G capped high-salt 0.14; 1G uncapped low-salt -0.03
* A387 -> 1G capped high-salt -0.02; 1G uncapped low-salt -0.07
* A388 -> 1G capped high-salt 0.08; 1G uncapped low-salt 0.16
* A389 -> 1G capped high-salt 0.11; 1G uncapped low-salt 0.06
* A390 -> 1G capped high-salt 0.04; 1G uncapped low-salt -0.20
* U391 -> 1G capped high-salt 0.02; 1G uncapped low-salt -0.07
* U392 -> 1G capped high-salt 0.02; 1G uncapped low-salt -0.08
* C393 -> 1G capped high-salt 0.04; 1G uncapped low-salt -0.13
* G394 -> 1G capped high-salt 0.04; 1G uncapped low-salt -0.13
* G395 -> 1G capped high-salt 0.17; 1G uncapped low-salt -0.41
* U396 -> 1G capped high-salt -0.01; 1G uncapped low-salt -0.02
* U397 -> 1G capped high-salt 0.01; 1G uncapped low-salt 0.04
* A398 -> 1G capped high-salt 0.06; 1G uncapped low-salt 0.02
* A399 -> 1G capped high-salt 0.06; 1G uncapped low-salt 0.15
* G400 -> 1G capped high-salt -0.07; 1G uncapped low-salt 0.04
* G401 -> 1G capped high-salt -0.13; 1G uncapped low-salt -0.21
* C402 -> 1G capped high-salt 0.02; 1G uncapped low-salt -0.24
* C403 -> 1G capped high-salt -0.13; 1G uncapped low-salt -0.08
* A404 -> 1G capped high-salt -0.01; 1G uncapped low-salt -0.20
* G405 -> 1G capped high-salt -0.12; 1G uncapped low-salt -0.15
* G406 -> 1G capped high-salt -0.13; 1G uncapped low-salt -0.04
* G407 -> 1G capped high-salt 0.08; 1G uncapped low-salt -0.02
* G408 -> 1G capped high-salt 0.07; 1G uncapped low-salt -0.01
* G409 -> 1G capped high-salt 0.11; 1G uncapped low-salt -0.17
* A410 -> 1G capped high-salt 0.09; 1G uncapped low-salt 0.06
* A411 -> 1G capped high-salt 0.00; 1G uncapped low-salt 0.17
* A412 -> 1G capped high-salt 0.03; 1G uncapped low-salt 0.07
* G413 -> 1G capped high-salt 0.06; 1G uncapped low-salt -0.01
* A414 -> 1G capped high-salt 0.02; 1G uncapped low-salt 0.09
* A415 -> 1G capped high-salt -0.09; 1G uncapped low-salt 0.00
* A416 -> 1G capped high-salt 0.10; 1G uncapped low-salt 0.13
* C417 -> 1G capped high-salt 0.00; 1G uncapped low-salt 0.28
* A418 -> 1G capped high-salt 0.09; 1G uncapped low-salt 0.11
* A419 -> 1G capped high-salt 0.04; 1G uncapped low-salt 0.03
* U420 -> 1G capped high-salt 0.02; 1G uncapped low-salt -0.02
* A421 -> 1G capped high-salt 0.15; 1G uncapped low-salt 0.02
* U422 -> 1G capped high-salt -0.04; 1G uncapped low-salt 0.00
* A423 -> 1G capped high-salt 0.07; 1G uncapped low-salt -0.02

Data from the supplement of Ye et al. 2022, doi:10.1038/s41594-022-00746-2.